Anti-infective test results gathered from many reports (values: NIAID ChemDB through PubChem).

Shared fields: whole-cell or culture tests; agent: Candida krusei; endpoint: MIC

Lines come from different laboratories, so protocols vary. Blank or dashed fields: not listed here.

smiles | strain | method | setting | value
CN(Cc1ccc(S(=O)(=O)Nc2ccc([N+](=O)[O-])cc2)cc1)CC(O)(Cn1cncn1)c1ccc(F)cc1F | 8 | resazurin |  | 1.9 µg/mL
O=C(CCn1ccnc1)c1ccc(Br)cc1 | RTCC 1090 | broth dilution |  | >64 µg/mL
CC(C)c1ccc(S(=O)(=O)Nc2ccc(CN(C)CC(O)(Cn3cncn3)c3ccc(F)cc3F)cc2)cc1 | 8 | resazurin |  | 1.5 µg/mL
OC(CCn1ccnc1)c1cccc(C(O)c2ccc(Cl)c(Cl)c2)c1 | RTCC 1001 | broth dilution |  | >64 µg/mL
CC(C)S(=O)(=O)Nc1ccc(CN(C)CC(O)(Cn2cncn2)c2ccc(F)cc2F)cc1 | 8 | resazurin |  | 15.1 µg/mL
Cc1ccccc1N1C(=O)C[C@@H](C)C1=O | CCC 117-2000 | broth dilution / turbidity |  | 62.5 µg/mL
CCCCCCCCCCCCCCCC(=O)NC(CCCCN)C(=O)NC(CCCCN)C(N)=O | 4273 | broth dilution |  | 1 µg/mL
Cc1ccc(C(O)c2cccc(C(O)CCn3ccnc3)c2)cc1 | RTCC 1001 | broth dilution |  | >64 µg/mL
Clc1ccccc1C(c1ccccc1)(c1ccccc1)n1ccnc1 | Clinical isolates |  | 48 h | 4 µg/mL
CN(Cc1ccc(S(=O)(=O)N2CCOCC2)cc1)CC(O)(Cn1cncn1)c1ccc(F)cc1F | 8 | resazurin |  | 2.7 µg/mL
C[C@@H]1CC(=O)N(c2ccc(F)cc2F)C1=O | CCC 117-2000 | broth dilution / turbidity |  | 31.3 µg/mL
O=C(CCn1ccnc1)c1ccc(Cl)cc1 | RTCC 1090 | broth dilution |  | >64 µg/mL
CC1CC(=O)N(c2ccc(Br)cc2)C1=O | CCC 117-2000 | broth dilution / turbidity |  | 125 µg/mL
O=C1c2ccccc2CC1Cn1ccnc1 | RTCC 1001 | broth dilution |  | 64 µg/mL
CC1C(=O)N(CCc2ccccc2)C(=O)C1C | CCC 117-2000 | broth dilution / turbidity |  | 250 µg/mL
CCCc1ccc(NS(=O)(=O)c2ccc(CN(C)CC(O)(Cn3cncn3)c3ccc(F)cc3F)cc2)cc1 | 8 | resazurin |  | 1.8 µg/mL
C[C@@H]1CC(=O)N(c2ccc(Cl)cc2)C1=O | CCC 117-2000 | broth dilution / turbidity |  | 125 µg/mL
O=C(CCn1ccnc1)c1cccc(O)c1 | RTCC 1090 | broth dilution |  | 32 µg/mL

2 of the rows above, restated:

smiles | strain | method | setting | value
CCCc1ccc(NS(=O)(=O)c2ccc(CN(C)CC(O)(Cn3cncn3)c3ccc(F)cc3F)cc2)cc1 | 8 | resazurin |  | 1.8 µg/mL
Clc1ccccc1C(c1ccccc1)(c1ccccc1)n1ccnc1 | Clinical isolates |  | 48 h | 4 µg/mL